Data: patent publication US5750391A, “Filariid nematode cysteine protease proteins” (Heska Corporation, priority 1995, dated 1998)

Test system: D. immitis larvae
Assay: Effect of protease inhibitors on larval molting (L3 cultured in NI medium)
Assay type: cell-based, Dirofilaria immitis
Conditions: treated larvae

CC(C)C[C@H](NP(=O)(O)O[C@@H]1O[C@@H](C)[C@H](O)[C@@H](O)[C@H]1O)C(=O)N[C@@H](Cc1c[nH]c2ccccc12)C(=O)O [Phosphoramidon]
cuticle separation and escape from old cuticle: could not open up the old cuticle and escape
